Data as given in PubChem BioAssay AID624099 (ICCB-Longwood, 2012)
Purpose: 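Human genes that papillomavirus E2 requires to repress the HPV18 LCR promoter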 (primary screen). Cells: human C33A cervical carcinoma cells (HPV-negative) stably expressing BPV1 E2 and an HPV18 LCR luciferase reporter. Reagent: siRNA pool against human genes, 40 nM. Time to read-out: 72 h. Detection: 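HPV18 LCR reporter light per well, converted to plate-wise z-scores that exclude control wells, and averaged over triplicate plates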. Reading the numbers: mean z-score and z-score: higher = stronger reporter signal, weaker E2 silencing. Hit rule: 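Mean z ≥ 2 together with z ≥ 2 in two or more of the three replicates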.
This is a random part of about 21,000 reagents tested. 497 of all reagents (2.4%) were called active. 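Higher z means weaker E2 silencing; only reporter increases were scored, and knock-downs that hurt cell survival may mask genuine repressor factors.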 No sequences are given here.

mean z-score | z-score, replicate A | z-score, replicate B | z-score, replicate C | Call | gene knocked down
-0.59 | -0.61 | -0.47 | -0.69 | inactive | ATP5PD
-1.97 | -2.09 | -1.84 | -2 | inactive | MYCN
1.16 | 1.16 | 0.83 | 1.49 | inactive | AADACL4
-0.16 | -0.07 | -0.18 | -0.22 | inactive | FAM149B1P1
-0.71 | -0.68 | -0.56 | -0.89 | inactive | GOLGA8IP
0.49 | 0.4 | 0.37 | 0.7 | inactive | FBXO7
-0.72 | -0.64 | -0.89 | -0.62 | inactive | KCNN2
0.16 | 0.2 | 0.27 | 0.02 | inactive | PEX2
0.26 | 0.47 | -0.09 | 0.41 | inactive | LOC401456 (retired record)
-0.57 | -0.83 | -0.54 | -0.33 | inactive | EIF3K
-0.23 | -0.4 | -0.17 | -0.12 | inactive | HNRNPH1
0.62 | 0.82 | 0.48 | 0.56 | inactive | SCRN1
0.38 | 0.51 | 0.21 | 0.43 | inactive | BST1
0.49 | 0.92 | 0.25 | 0.31 | inactive | MBD5
1.51 | 1.15 | 1.77 | 1.62 | inactive | GHITM
-0.42 | -0.52 | -0.58 | -0.16 | inactive | FSTL3
1.23 | 1.38 | 1.46 | 0.84 | inactive | NCR2
0.39 | 0.28 | 0.38 | 0.51 | inactive | MRAS
-1.18 | -0.95 | -1.06 | -1.53 | inactive | DPM3
0.49 | 0.47 | 0.54 | 0.45 | inactive | SUZ12
0.66 | 0.92 | 0.5 | 0.57 | inactive | CSF3
-0.04 | -0.34 | 0.08 | 0.15 | inactive | BCAS3
-0.34 | -0.08 | -0.7 | -0.24 | inactive | MUC20

2 entries from above, arranged by “z-score, replicate C”, descending:
mean z-score | z-score, replicate A | z-score, replicate B | z-score, replicate C | Call | gene knocked down
0.49 | 0.47 | 0.54 | 0.45 | inactive | SUZ12
-1.18 | -0.95 | -1.06 | -1.53 | inactive | DPM3
